Assay results published in patent publication US20250296937A1, “CYCLIC BISBENZYL TETRAHYDROISOQUINOLINE COMPOUND, AND PREPARATION METHOD THEREFOR AND USE THEREOF” (Shanghai Institute of Materia Medica, Chinesse Academy of …, priority 2021, published 2025).

Tested on: 2019 novel coronavirus (SARS-CoV-2) original strain
Assay: Replication inhibitory activity against SARS-CoV-2 original strain in Vero E6 cells (qRT-PCR)
Type: cell-based
Conditions: SI = Cytotoxicity CC50 value/Inhibition against viral replication of original strain EC50 value

Compound | Therapeutic index SI
COc1cc2c3cc1Oc1c(OC)c(OC)cc4c1[C@H](Cc1ccc(cc1)Oc1cc(ccc1C(=O)NC15CC6CC(CC(C6)C1)C5)C[C@H]3N(C)CC2)N(C)CC4 [Compound 49] | >5
COc1ccc(NC(=O)c2ccc3cc2Oc2ccc(cc2)C[C@H]2c4c(cc(OC)c(OC)c4Oc4cc5c(cc4OC)CCN(C)[C@@H]5C3)CCN2C)cc1 [Compound 52] | >10
COc1cc2c3cc1Oc1c(OC)c(OC)cc4c1[C@H](Cc1ccc(cc1)Oc1cc(ccc1C(=O)OCCOCCO)C[C@H]3N(C)CC2)N(C)CC4 [Compound 58] | >50
CCCCCNC(=O)c1ccc2cc1Oc1ccc(cc1)C[C@H]1c3c(cc(OC)c(OC)c3Oc3cc4c(cc3OC)CCN(C)[C@@H]4C2)CCN1C [Compound 37] | >2
COC(=O)c1ccc2cc1Oc1ccc(cc1)C[C@H]1c3c(cc(OC)c(OC)c3Oc3cc4c(cc3OC)CCN(C)[C@@H]4C2)CCN1C [Compound 3] | >50
COc1cc2c3cc1Oc1c(OC)c(OC)cc4c1[C@H](Cc1ccc(cc1)Oc1cc(ccc1C(=O)C1CC1)C[C@H]3N(C)CC2)N(C)CC4 [Compound 54] | >2
CNC(=O)c1ccc2cc1Oc1ccc(cc1)C[C@H]1c3c(cc(OC)c(OC)c3Oc3cc4c(cc3OC)CCN(C)[C@@H]4C2)CCN1C [Compound 5] | 10-30
COc1cc2c3cc1Oc1c(OC)c(OC)cc4c1[C@H](Cc1ccc(cc1)Oc1cc(ccc1C)C[C@H]3N(C)CC2)N(C)CC4 [Compound 35] | >2
COc1cc2c3cc1Oc1c(OC)c(OC)cc4c1[C@H](Cc1ccc(cc1)Oc1cccc(c1)C[C@H]3N(C)CC2)N(C)CC4 [Compound 33] | >10
COc1cc2c3cc1Oc1c(OC)c(OC)cc4c1[C@H](Cc1ccc(cc1)Oc1cc(cc5[nH]c(=O)oc15)C[C@H]3N(C)CC2)N(C)CC4 [Compound 17] | >10
COc1cc2c3cc1Oc1c(OC)c(OC)cc4c1[C@H](Cc1ccc(cc1)Oc1cc(ccc1C(N)=O)C[C@H]3N(C)CC2)N(C)CC4 [Compound 4] | >100
COc1cc2c3cc1Oc1c(OC)c(OC)cc4c1[C@H](Cc1ccc(cc1)Oc1cc(ccc1C(=O)NC(C)C)C[C@H]3N(C)CC2)N(C)CC4 [Compound 48] | >10
COc1cc2c3cc1Oc1c(OC)c(OC)cc4c1[C@H](Cc1ccc(cc1)Oc1cc(ccc1C(=O)NC1CCC1)C[C@H]3N(C)CC2)N(C)CC4 [Compound 50] | >30
COc1cc2c3cc1Oc1c(OC)c(OC)cc4c1[C@H](Cc1ccc(cc1)Oc1cc(ccc1C(=O)NC1CCCC1)C[C@H]3N(C)CC2)N(C)CC4 [Compound 22] | >6
CCCCNC(=O)Oc1ccc2cc1Oc1ccc(cc1)C[C@H]1c3c(cc(OC)c(OC)c3Oc3cc4c(cc3OC)CCN(C)[C@@H]4C2)CCN1C [Compound 2] | 30-50
COc1cc2c3cc1Oc1c(OC)c(OC)cc4c1[C@H](Cc1ccc(cc1)Oc1cc(ccc1CO)C[C@H]3N(C)CC2)N(C)CC4 [Compound 9] | >33
COc1cc2c3cc1Oc1c(OC)c(OC)cc4c1[C@H](Cc1ccc(cc1)Oc1cc(ccc1C(=O)Nc1cccnc1)C[C@H]3N(C)CC2)N(C)CC4 [Compound 51] | >10
C=C(C)c1ccc2cc1Oc1ccc(cc1)C[C@H]1c3c(cc(OC)c(OC)c3Oc3cc4c(cc3OC)CCN(C)[C@@H]4C2)CCN1C [Compound 34] | >6
COc1cc2c3cc1Oc1c(OC)c(OC)cc4c1[C@H](Cc1ccc(cc1)Oc1cc(ccc1C(C)O)C[C@H]3N(C)CC2)N(C)CC4 (stereo partly shown) [Compound 40] | >30
COc1cc2c3cc1Oc1c(OC)c(OC)cc4c1[C@H](Cc1ccc(cc1)Oc1cc(ccc1C(=O)NCCOCCO)C[C@H]3N(C)CC2)N(C)CC4 [Compound 55] | >20
COc1cc2c3cc1Oc1c(OC)c(OC)cc4c1[C@H](Cc1ccc(cc1)Oc1cc(ccc1C1CC1)C[C@H]3N(C)CC2)N(C)CC4 [Compound 38] | >2
oxyacanthine hydrochloride [reference compound] | <3
COc1cc2c3cc1Oc1c(OC)c(OC)cc4c1[C@H](Cc1ccc(cc1)Oc1cc(ccc1C(=O)Nc1ccccc1)C[C@H]3N(C)CC2)N(C)CC4 [Compound 45] | >2
COc1cc2c3cc1Oc1c(OC)c(OC)cc4c1[C@H](Cc1ccc(cc1)Oc1cc(ccc1C(C)=O)C[C@H]3N(C)CC2)N(C)CC4 [Compound 19] | >20
COc1cc2c3cc1Oc1c(OC)c(OC)cc4c1[C@H](Cc1ccc(cc1)Oc1cc(ccc1C(=O)NC1CC1)C[C@H]3N(C)CC2)N(C)CC4 [Compound 6] | >50
